Assay [1] relates to Mycobacterium tuberculosis. Description: Antimycobacterial activity against mid-log phase of Mycobacterium tuberculosis CDC1551 isolated from patient after 7 days by 96 well plate assay.
For assay [2], the system named is Mycobacterium tuberculosis. Description: Antimycobacterial activity against mid-log phase of Mycobacterium tuberculosis UCSD14768J isolated from patient after two passages after 7 days by 96 well plate assay.
Assay [3] relates to Mycobacterium tuberculosis. Kind of assay: Antimycobacterial activity against mid-log phase of Mycobacterium tuberculosis VA1215 isolated from patient after two passages after 7 days by 96 well plate assay.
In assay [4] the test system is Mycobacterium tuberculosis. Kind of assay: Antimycobacterial activity against mid-log phase of Mycobacterium tuberculosis VA1345 isolated from patient after two passages after 7 days by 96 well plate assay.

SMILES strings stand for the structures. Converted amounts (≈) assume the structure as drawn.

With `O=C(NCCCN1CCCC1)c1ccc2c(c1)N(Cc1cccc(Cl)c1)C(=O)c1ccccc1S2`, the MIC95 in assay [1], in assay [2], in assay [3] and in assay [4] was 110 µM (≈ 55.7 µg/mL) throughout.
Regarding `O=C(NCCN1CCCCCC1)c1ccc2c(c1)N(Cc1cccc(Cl)c1)C(=O)c1ccccc1[S+]2[O-]` (racemic), the MIC95 in assay [1], in assay [2], in assay [3] and in assay [4] was 110 µM (≈ 59 µg/mL) throughout.
As to `O=C(NCCCN1CCCC1)c1ccc2c(c1)N(Cc1cccc(Cl)c1)C(=O)c1ccccc1[S+]2[O-]` (racemic), the MIC95 in assay [1], in assay [2], in assay [3] and in assay [4] was 220 µM (≈ 115 µg/mL) each time.
As for `CN(CCCNC(=O)c1ccc2c(c1)N(Cc1cccc(Cl)c1)C(=O)c1ccccc1[S+]2[O-])C1CCCCC1` (configuration not stated), the MIC95 in assay [1], in assay [2], in assay [3] and in assay [4] was 110 µM (≈ 62.1 µg/mL) throughout.
On to `CCC1CCCCN1CCCNC(=O)c1ccc2c(c1)N(Cc1cccc(Cl)c1)C(=O)c1ccccc1[S+]2[O-]` (racemic), for which the MIC95 in assay [3] amounted to 110 µM (≈ 62.1 µg/mL).

The record behind these values is ChEMBL document CHEMBL1795211, “Evaluation of NTF1836 as an inhibitor of the mycothiol biosynthetic enzyme MshC in growing and non-replicating Mycobacterium tuberculosis” (Bioorg Med Chem, 2011).
